Data on two substances can be found in article PMC6271011, “Synthesis, Leishmanicidal and Cytotoxic Activity of Triclosan-Chalcone, Triclosan-Chromone and Triclosan-Coumarin Hybrids” (Molecules, 2014).

This series has as its system intracellular amastigotes of L. (V) panamensis. The series can be described thus: Leishmanicidal activity against intracellular amastigotes (GFP, flow cytometry, 72 h). Format: cell-based, Leishmania (Viannia) panamensis. As to conditions: LC50 U-937 / EC50 intracellular amastigotes. As to the method: The leishmanicidal activity of compounds was evaluated on intracellular amastigotes of L. panamensis transfected with the green fluorescent protein gene (MHOM/CO/87/UA140pIR-GFP). Effect of each compound was determined according to the inhibition of the infection evidenced by both decrease of the infected cells and decrease of intracellular parasite load. Briefly, U-937 human cells at a concentration of 3 × 10^5 cells/mL in RPMI 1640 and 0.1 μg/mL of PMA (phorbol-12-myristate-13-acetate) were infected with promastigotes in stationary phase growth in a 15:1 parasites per cell ratio and incubated at 34 °C and 5% CO2 for 3 h. […]
After 24 h of infection, the culture medium was replaced by fresh culture medium containing each compound at concentrations of 20 μg/mL. […] Supernatant was discarded and cells were suspended in 500 μL of PBS and analyzed by flow cytometry (FC 500MPL, Cytomics, Brea, CA, USA) counting 20.000 events. […]
Antileishmanial activity was determined according to percentage of infected cells and parasite load obtained for each experimental condition by the cytometer. Percentage of infected cells was determined as the number of positive events by double fluorescence (green for parasites and red for cells) using dotplot analysis. On the other hand, the parasitic load was determined by analysis of mean fluorescence intensity (MFI). […]
On the technique in general: A flow cytometer gives signals particle by particle.

Regarding “3,4-dimethoxy-4'-hydroxychalcone [3,4-Dimethoxy-4'-hydroxychalcone (6)]”, the “SI (Selectivity Index = LC50/EC50)” value is listed as 0.7.
meglumine antimoniate [Sb(V)]: the “SI (Selectivity Index = LC50/EC50)” value was 78.7.
